Measured values published in the supplement of paper PMC12637763.
Substitutions are numbered along the chain they refer to. The list shows a part of the results. Env chains of viruses from a treatment-interruption trial, translated from the printed DNA. IC50 / IC80 of two broadly neutralizing antibodies; lower = more sensitive virus; >50 µg/ml means not reached and <0.001 µg/ml is below the lowest dose. No active / inactive call.

B1: HIV-1 Env, rebound clone, antibody arm (protein)
chain: MRVRGMRKNWQDLWRWGIMLLGMLMICNATKNSWVTVYYGVPVWKEASTTLFCASDAKAYDTEVHNVWATHACVPTDPSPQEIKLENVTEEFNMWKNNMVEQMHEDIISLWDQSLKPCVKLTPLCVTLNCTEVVQNNTRQNNTIGEIKNCSFQVSTNLQDKTHKEYALFYKLDIVQLNKSDNISYRLISCNTSDLRQACPKVSFEPIPIHYCAPAGFAILKCNDTRFSGKGTCKNVTTIQCTHGIRPVVSTQLLLNGSLAEEGVVIRSDNISDNTKTIIVQLSKAVKINCTRPNNNTRKGIHIGPGRAFYATGKIIGDIRQAHCDLSGAEWNNTLSQIFEELKKEFKNKTIAFNQSSGGDLEIVLHSFNCGGEFFYCNTSKLFNSTWNSTWNNNSTRNNSEYTITLPCRIRQIINLWQEVGKAMYAPPIEGQIRCSSNITGLLLTRDGGDTNSTTEVFRPGGGNMKDNWRSELYKYKVVKIEPLGVAPTRAKRRVVQREKRAVGIGALFLGFLGAAGSTMGAASMTLTVQARQLLSGIVQQQNNLLRAIEAQQHLLQLTVWGIKQLQARVLAVERYLKDQQLLGIWGCSGKLICTTAVPWNTSWSNKSLDDIWNNMTWMQWEKEIDNYTGLIYSLIEKSQNQQEKNEKDLLELDKWASLWTWFDITNWLWYIRIFIMIVGGLVGLRIVFVVLSVVNRVRKGYSPLSFQTHHPVPGGPDRPAGIGEEGGDKDRDGSTRLVDGFLAIIWVDLRSLFLFSYHRLRDLLLIVTRIVELLGRRGWEALKYWWNLLQYWSQELKKSAVSLYDTIAIAVAEGTDRIIEAIQGTCRAILHIPRRIRQGLERLLL
B2: HIV-1 Env, rebound clone, antibody arm (protein)
chain: B1 chain with V698G
B3: HIV-1 Env, rebound clone, antibody arm (protein)
chain: B1 chain with N614K, L631V

Legend:
[1] = molecular target: antibody 10-1074; assay: neutralization IC50; higher = virus less sensitive to the antibody
Protocol: (§1)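 Pseudovirus bearing the Env chain mixed with antibody, from 50 µg/ml in fivefold dilutions, on TZM-bl reporter cells, in duplicate.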

[2] = molecular target: antibody 3BNC117; assay: as above
Protocol: as §1

[3] = molecular target: antibody 10-1074; assay: neutralization IC80; higher = virus less sensitive to the antibody
Protocol: as §1

[4] = molecular target: antibody 3BNC117; assay: as above
Protocol: as §1

Binder | neutralization IC50 [1] | neutralization IC50 [2] | neutralization IC80 [3] | neutralization IC80 [4]
B1 | > 50 µg/mL | 0.019 µg/mL | > 50 µg/mL | 0.052 µg/mL
B2 | > 50 µg/mL | 0.027 µg/mL | > 50 µg/mL | 0.093 µg/mL
B3 | > 50 µg/mL | 0.034 µg/mL | > 50 µg/mL | 0.093 µg/mL
